The numbers were not newly measured in patent publication US12545699B2, “Bivalent LECA inhibitors targeting biofilm formation of Pseudomonas aeruginosa” (HELMHOLTZ-ZENTRUM FÜR INFEKTIONSFORSCHUNG GMBH, priority 2019, dated 2026), which cites them from elsewhere.

Amino acid sequences for entries named in this document (tags omitted).
UniProt Q05097, whole entry: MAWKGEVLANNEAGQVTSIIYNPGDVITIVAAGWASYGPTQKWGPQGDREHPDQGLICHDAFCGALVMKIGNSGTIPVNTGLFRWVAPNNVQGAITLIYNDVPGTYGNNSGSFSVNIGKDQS

The series has as its target LecA (Pseudomonas aeruginosa, UniProt Q05097). As to conditions: read-out: intrinsic affinity (Kd) of the fluorescent tracer to LecA; from Joachim et al., Org Biomol Chem 2016; cited from earlier work.

What is called Kd is the free concentration of one partner at which half of the binding sites on the other are occupied at equilibrium, for simple one-to-one binding. Turning to `O=C(CNC(=S)Nc1ccc(-c2c3ccc(=O)cc-3oc3cc(O)ccc23)c(C(=O)O)c1)Nc1cccc(O[C@@H]2O[C@H](CO)[C@H](O)[C@H](O)[C@H]2O)c1`, the Kd is 7.4 µM.
